Pooled drug test results. Numbers come from NIAID ChemDB, via PubChem.

Shared fields: whole-cell or culture tests; agent: HIV-2; strain or isolate: ROD; cell line: MT-4; method: MTT; measure: EC50

Neighbouring rows are from separate reports.

{"structure": "Cc1cc(C#Cc2cccc(N)c2)cc(C)c1Oc1ccnc(NC2CCN(Cc3ccc(C#N)cc3)CC2)n1", "result": ">0.261 µM"}
{"structure": "Cc1cc(C)cc(C(=O)c2cccnc2Nc2cnccn2)c1", "result": ">240 µM"}
{"structure": "Cc1cc(C#Cc2cccc(N)c2)cc(C)c1Oc1ccnc(NC2CCN(c3cccc(C(N)=O)c3)CC2)n1", "result": ">1.063 µM"}
{"structure": "Cc1cc(C)cc(C(=Nc2ccc(C(N)=O)cc2)c2cccnc2Cl)c1", "result": ">34.03 µM"}
{"structure": "CN(C(=O)[C@H](Cc1ccccc1)NC(=O)c1cccc(C(=O)Nc2ccc(Br)cc2)c1)c1ccc2scnc2c1", "result": ">6.21 µM"}
{"structure": "N#Cc1ccc(Nc2nc(Oc3c(Cl)cccc3Cl)ncc2[N+](=O)[O-])cc1", "result": ">207 µM"}
{"structure": "Cc1cc(C#N)cc(C)c1Oc1ccc([N+](=O)[O-])c(NC2CCN(Cc3ccc(S(C)(=O)=O)cc3)CC2)n1", "result": ">146 µM"}
{"structure": "Cc1cc(C#Cc2ccc(C(F)(F)F)cc2)cc(C)c1Oc1ccnc(Nc2ccc(C#N)cc2)n1", "result": ">7.353 µM"}
{"structure": "COc1cc(-c2ccc(C#N)cc2)ccc1Oc1nc(Nc2ccc(C#N)cc2)nc2ccsc12", "result": "57.5 µM"}
{"structure": "Cc1cc(C)c(Oc2ccc(N)c(NC3CCN(Cc4ccncc4)CC3)n2)c(C)c1", "result": ">30 µM"}
{"structure": "CC(=O)Nc1cnc(Oc2c(Br)cc(Br)cc2Br)nc1Nc1ccc(C#N)cc1", "result": ">119 µM"}
{"structure": "N#Cc1ccc(Nc2nc(Oc3ccc(-c4ccc(C#N)cc4)cc3C#N)c3sccc3n2)cc1", "result": ">124.5 µM"}
{"structure": "COc1ccc(C(=O)CSc2nc(CCC3CCCCC3)cc(=O)[nH]2)cc1", "result": "156 µM"}
{"structure": "c1cc2cc(NCCCNC3=NCCCN3)ccc2[nH]1", "result": ">167 µM"}
{"structure": "Cc1c(C(C)CC2CCCCC2)nc(SCC(=O)c2ccc(F)cc2)[nH]c1=O", "result": "115 µM"}
{"structure": "N#Cc1ccc(Nc2nc(Oc3ccc(-c4ccc(C#N)cc4)cc3)c3sccc3n2)cc1", "result": "41.1 µM"}
{"structure": "Cc1cc(C=O)cc(C)c1Oc1ncc([N+](=O)[O-])c(Nc2ccc(C#N)cc2)n1", "result": ">37.18 µM"}
{"structure": "Cn1ncc2c1S(=O)(=O)N(CCc1ccccc1)C(=O)N2CCc1ccccc1", "result": ">327.2 µM"}
{"structure": "Cc1cc(C)c(Nc2ccc([N+](=O)[O-])c(NC3CCN(Cc4ccc(C(N)=O)cc4)CC3)n2)c(C)c1", "result": ">25 µM"}
{"structure": "CCNC(N)=NCCCNc1ccc2[nH]ccc2c1", "result": ">52.67 µM"}
{"structure": "N#Cc1ccc(Nc2nc(Oc3ccc(-c4ccc(C#N)cc4)cc3F)c3sccc3n2)cc1", "result": ">125 µM"}
{"structure": "CN=C(N)NCCCNc1ccc2[nH]ccc2c1", "result": ">144 µM"}
{"structure": "Cc1cc(C)cc(C(=O)c2cccnc2Oc2ccc(C(=O)O)cc2)c1", "result": ">150 µM"}
{"structure": "Cc1cc(C#N)cc(C)c1Oc1ccc([N+](=O)[O-])c(NC2CCN(Cc3ccc(S(N)(=O)=O)cc3)CC2)n1", "result": ">27 µM"}
{"structure": "CC(=O)Nc1cnc(Oc2c(C)cc(C)cc2C)nc1Nc1ccc(C#N)cc1", "result": ">323 µM"}
{"structure": "Cc1cc(C#Cc2ccccc2)cc(C)c1Oc1ccnc(NC2CCN(Cc3ccc(S(N)(=O)=O)cc3)CC2)n1", "result": ">0.766 µM"}
{"structure": "Cn1ncc2c1S(=O)(=O)N(CCc1ccccc1)C(=O)N2CCc1ccccc1C#N", "result": ">198 µM"}
{"structure": "Cc1cc(C)c(Oc2ccc(N)c(NC3CCN(Cc4ccc(S(C)(=O)=O)cc4)CC3)n2)c(C)c1", "result": ">28 µM"}
{"structure": "Cc1c(C(C)CC2CCCCC2)nc(SCC(=O)c2ccccc2)[nH]c1=O", "result": "179 µM"}
{"structure": "Cn1ncc2c1S(=O)(=O)N(CCc1ccccc1)C(=O)N2CCc1ccc(Br)cc1", "result": ">112.7 µM"}
{"structure": "NC(N)=NCCCNc1ccc2[nH]ccc2c1.O=S(O)O", "result": ">38.03 µM"}
{"structure": "Cc1cc(C#Cc2ccccc2N)cc(C)c1Oc1ccnc(Nc2ccc(C#N)cc2)n1", "result": ">8.883 µM"}
{"structure": "CCc1c(CCC2CCCCC2)nc(SCC(=O)c2ccccc2)[nH]c1=O", "result": "241 µM"}
{"structure": "Cc1cc(C)cc(C(=O)c2cccnc2Nc2ccc(O)cc2)c1", "result": ">6.44 µM"}
{"structure": "CC(CC1CCCCC1)c1cc(=O)[nH]c(SCC(=O)c2ccc(O)cc2)n1", "result": "31 µM"}
{"structure": "Cn1ncc2c1S(=O)(=O)N(CCc1ccccc1)C(=O)N2CCc1cccc(C#N)c1", "result": ">307.1 µM"}
{"structure": "NC(=NCCCCNc1ccc2[nH]ccc2c1)N[N+](=O)[O-]", "result": ">431 µM"}
{"structure": "Cc1cc(C#Cc2cccc(N)c2)cc(C)c1Oc1ccnc(NC2CCN(Cc3cccc(C(N)=O)c3)CC2)n1", "result": ">0.63 µM"}
{"structure": "Cc1cc(C)cc(C(=O)c2cccnc2Nc2ccncc2)c1", "result": ">32.34 µM"}
{"structure": "c1cc2cc(NCCNC3=NCCCN3)ccc2[nH]1", "result": "58.14 µM"}
{"structure": "Cc1ccc(/C=C/c2cc(C)c(Oc3ccnc(Nc4ccc(C#N)cc4)n3)c(C)c2)cc1", "result": ">8.51 µM"}
{"structure": "NC(N)=NCCNc1ccc2[nH]ccc2c1.O=S(O)O", "result": ">77.68 µM"}
{"structure": "N#Cc1ccc(Nc2nc(Oc3ccc(-c4ccc(C#N)cc4)cc3[N+](=O)[O-])c3sccc3n2)cc1", "result": ">107.2 µM"}

For reference, 4 entries again:

structure | result
Cc1cc(C)c(Oc2ccc(N)c(NC3CCN(Cc4ccc(S(C)(=O)=O)cc4)CC3)n2)c(C)c1 | >28 µM
Cc1cc(C#Cc2cccc(N)c2)cc(C)c1Oc1ccnc(NC2CCN(Cc3ccc(C#N)cc3)CC2)n1 | >0.261 µM
CN=C(N)NCCCNc1ccc2[nH]ccc2c1 | >144 µM
Cc1cc(C#Cc2cccc(N)c2)cc(C)c1Oc1ccnc(NC2CCN(Cc3cccc(C(N)=O)c3)CC2)n1 | >0.63 µM

ECn is the concentration giving n% inhibition of infection, replication or growth.